According to US11542257B2, “Arylnaphthalene compounds as vacuolar-ATPase inhibitors and the use thereof” (priority 2018, dated 2023):

Assays:
Ebolavirus (EBOV) = type: cell-based
Marburg virus (MARV) = type: cell-based

SMILES | fold improvement in potency compared to diphyllin (EBOV infection) (Ebolavirus (EBOV)) [fold] | fold decrease in potency against MARV compared to EBOV infection (Marburg virus (MARV)) [fold]
CCOc1c2c(c(-c3ccc4c(c3)OCO4)c3cc(OC)c(OC)cc13)C(=O)OC2 [Compound 2c, 9-(benzo[d][1,3]dioxol-5-yl)-4-ethoxy-6,7-dimethoxynaphtho[2,3-c]furan-1(3H)-one] | 10 | 
COc1cc2c(OCCCN3CCOCC3)c3c(c(-c4ccc5c(c4)OCO5)c2cc1OC)C(=O)OC3 [Compound 2g, 9-(benzo[d][1,3]dioxol-5-yl)-6,7-dimethoxy-4-(3-morpholinopropoxy)naphtho[2,3-c]furan-1(3H)-one] |  | 2
